Measured values from several laboratories, pooled; numbers as filed in NIAID ChemDB.

Common to all: target-level tests; organism: Varicella zoster virus

ICn is the concentration giving n% inhibition.

SMILES,target,strain or isolate,endpoint,result
Cc1cn([C@@H]2O[C@H](CO)[C@@H](O)[C@@H]2O)c(=O)[nH]c1=O,Thymidylate synthetase,Kanno-Kohmura (TK-),IC50,>100 µM
CN(C)n1cc(C(=O)NCc2ccc(Cl)cc2)c(=O)c2cc(C#CCO)ccc21,DNA polymerase,-,IC50,0.53 µM
CC(=O)/C=C/C(=O)N[C@@H](C)c1nc2scc(C)c2c(=O)o1,Protease,-,IC50,1.6 µM
C[C@@H](O)Cn1cnc2c(Cl)ncnc21,Thymidine kinase,-,Ki,2700 µM
Nc1ncnc2c1ncn2C[C@@H](CO)OCP(=O)(O)O,Thymidylate synthetase,KANNO (TK+),IC50,>100 µM
O=C(NCc1ccc(Cl)cc1)c1cn(N2CCCC2)c2ccc(CN3CCOCC3)cc2c1=O,DNA polymerase,-,IC50,0.88 µM
O=C(NCc1ccc(Cl)cc1)c1n[nH]c2ccccc2c1=O,DNA polymerase,-,IC50,10.1 µM
Nc1nc2c(ncn2COCCOP(=O)(O)OP(=O)(O)OP(=O)(O)O)c(=O)[nH]1,DNA polymerase,-,IC50,0.007 µM
Nc1ccn([C@@H]2O[C@H](CO)[C@@H](O)[C@@H]2O)c(=O)n1,Thymidylate synthetase,KANNO (TK+),IC50,52 µM
Cn1cc(C(=O)NCc2ccc(Cl)cc2)c(=O)c2cc(CN3CCOCC3)ccc21,DNA polymerase,TYPE 2,IC50,0.37 µM
Nn1cc(C(=O)NCc2ccc(Cl)cc2)c(=O)c2cc(C#CCO)ccc21,DNA polymerase,-,IC50,0.22 µM
Nc1ncnc2c1ncn2[C@H]1CC[C@@H](CO)O1,Thymidylate synthetase,KANNO (TK+),IC50,>100 µM
O=C(NCc1ccc(Cl)cc1)c1cn(N2CCCCC2)c2ccc(CN3CCOCC3)cc2c1=O,DNA polymerase,-,IC50,0.3 µM
O=c1[nH]c(=O)n([C@@H]2O[C@H](CO)[C@@H](O)[C@@H]2O)cc1/C=C/Br,Thymidylate synthetase,KANNO (TK+),IC50,>100 µM
NC1=NC2C(C=CN2CC(CO)CCOP(=O)(O)OP(=O)(O)OP(=O)(O)O)C(=O)N1,DNA polymerase,-,Ki,0.3 µM
CCOc1ncnc2c1ncn2[C@@H]1O[C@H](CO)[C@@H](O)[C@@H]1O,Thymidine kinase,OKA,Ki,870 µM
O=C(NCc1ccc(Cl)cc1)c1c[nH]c2c(F)cccc2c1=O,DNA polymerase,-,Ki,2 µM
C[C@@H](O)Cn1cnc2c(CS)ncnc21,Thymidine kinase,-,Ki,1100 µM
C/C=C/c1cn([C@H]2C[C@H](O)[C@@H](CO)O2)c(=O)[nH]c1=O,Thymidine kinase,-,Ki,0.3 µM
C[C@@H](O)Cn1cnc2c(=S)nc(N)[nH]c21,Thymidine kinase,-,Ki,300 µM
O=c1[nH]c(=O)n([C@H]2CO[C@@H](CO)O2)cc1/C=C/Br,Thymidine kinase,-,Ki,78 µM

A second listing of 3 rows from above:

SMILES | target | strain or isolate | endpoint | result
O=C(NCc1ccc(Cl)cc1)c1n[nH]c2ccccc2c1=O | DNA polymerase | - | IC50 | 10.1 µM
CCOc1ncnc2c1ncn2[C@@H]1O[C@H](CO)[C@@H](O)[C@@H]1O | Thymidine kinase | OKA | Ki | 870 µM
CN(C)n1cc(C(=O)NCc2ccc(Cl)cc2)c(=O)c2cc(C#CCO)ccc21 | DNA polymerase | - | IC50 | 0.53 µM

Blank or dashed fields: not listed here. Conditions beyond the fields shown may differ between rows.